Assay results reported in patent US9957247B2, “SecA inhibitors and methods of making and using thereof” (Georgia State University Research Foundation, Inc., priority 2012, dated 2018).

Protein sequences, listed by entry. Tags and fused reporters are not part of them. Residues count along the entry.
UniProt P10408, 1-610 limits assumed: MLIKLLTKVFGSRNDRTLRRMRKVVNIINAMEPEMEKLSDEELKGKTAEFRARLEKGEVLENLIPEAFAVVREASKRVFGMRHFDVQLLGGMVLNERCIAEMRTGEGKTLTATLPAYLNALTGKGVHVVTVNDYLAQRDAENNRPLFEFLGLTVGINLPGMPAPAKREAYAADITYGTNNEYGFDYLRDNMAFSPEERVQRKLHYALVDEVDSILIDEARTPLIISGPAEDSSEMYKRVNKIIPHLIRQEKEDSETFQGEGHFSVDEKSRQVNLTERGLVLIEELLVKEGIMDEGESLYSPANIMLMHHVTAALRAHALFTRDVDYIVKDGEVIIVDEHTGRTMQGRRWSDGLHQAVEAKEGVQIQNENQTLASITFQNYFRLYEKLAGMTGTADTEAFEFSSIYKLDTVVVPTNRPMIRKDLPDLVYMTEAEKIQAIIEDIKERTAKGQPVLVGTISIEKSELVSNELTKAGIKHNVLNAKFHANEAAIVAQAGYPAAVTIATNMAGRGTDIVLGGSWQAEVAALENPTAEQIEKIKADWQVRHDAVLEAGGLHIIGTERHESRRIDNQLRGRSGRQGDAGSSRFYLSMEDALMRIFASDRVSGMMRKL
UniProt P10408, whole entry, looked up: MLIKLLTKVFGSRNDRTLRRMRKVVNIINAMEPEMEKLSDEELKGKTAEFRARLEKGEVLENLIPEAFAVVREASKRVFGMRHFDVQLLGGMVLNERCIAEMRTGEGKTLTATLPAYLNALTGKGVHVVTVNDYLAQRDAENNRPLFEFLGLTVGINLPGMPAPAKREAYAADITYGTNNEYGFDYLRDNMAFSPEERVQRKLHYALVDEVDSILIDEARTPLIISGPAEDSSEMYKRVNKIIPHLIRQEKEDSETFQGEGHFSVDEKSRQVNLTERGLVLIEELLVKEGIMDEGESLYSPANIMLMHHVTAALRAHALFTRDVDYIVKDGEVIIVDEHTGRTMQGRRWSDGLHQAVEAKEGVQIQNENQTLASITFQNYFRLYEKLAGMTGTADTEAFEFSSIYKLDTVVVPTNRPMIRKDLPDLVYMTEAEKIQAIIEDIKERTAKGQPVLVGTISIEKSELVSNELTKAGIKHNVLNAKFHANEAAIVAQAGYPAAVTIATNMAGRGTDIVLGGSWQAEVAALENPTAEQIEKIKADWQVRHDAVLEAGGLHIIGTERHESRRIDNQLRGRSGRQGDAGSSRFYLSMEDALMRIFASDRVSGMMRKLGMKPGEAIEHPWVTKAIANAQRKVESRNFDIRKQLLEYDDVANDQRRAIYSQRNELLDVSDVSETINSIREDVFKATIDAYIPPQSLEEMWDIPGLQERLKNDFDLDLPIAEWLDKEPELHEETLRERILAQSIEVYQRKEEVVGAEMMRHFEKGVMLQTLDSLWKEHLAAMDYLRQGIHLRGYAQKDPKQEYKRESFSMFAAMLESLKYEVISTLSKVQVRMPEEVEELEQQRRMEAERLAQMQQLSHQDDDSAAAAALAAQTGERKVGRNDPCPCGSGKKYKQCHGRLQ

What was measured:
EcSecA N68 = EcSecA N68 (Escherichia coli, UniProt P10408); test: Intrinsic ATPase of truncated EcSecA N68 (EcN68, unregulated ATPase); format: biochemical, E. coli; settings: read-out: IC50, EcN68 SecA ATPase (unregulated ATPase); Example 1, fluorescein analogs
EcSecA = EcSecA (Escherichia coli, UniProt P10408); settings: read-out: IC50, in vitro protein translocation; according to a previous report; cited from earlier work

[N-]=[N+]=[N-]
IC50 (EcSecA N68): > 10 µM
IC50 (EcSecA): 600 µM
